Source: patent US20230192660A1 (priority 2020, published 2023)

Target: SARS-CoV-2 Mpro C145A mutant (Severe acute respiratory syndrome coronavirus 2, UniProt P0DTD1, C3408A)
Test: Differential scanning fluorometry, melting temperature of inactive Mpro C145A
Format: binding
Details: 3 μM Mpro C145A, 30 μM compound

CC(C)(C)C(=O)N[C@H](C(=O)N1C[C@H]2[C@@H]([C@H]1C(=O)N[C@@H](C[C@@H]1CCNC1=O)C(=O)C(N)=O)C2(C)C)C(C)(C)C
ΔTm Mpro C145A: 0.1 °C

CC1(C)[C@@H]2[C@@H](C(=O)N[C@@H](C[C@@H]3CCNC3=O)C(=O)C(N)=O)N(C(=O)OCc3ccccc3)C[C@@H]21
ΔTm Mpro C145A: 0 °C

CC(C)(C)NC(=O)N[C@H](C(=O)N1C[C@@H]2CCC[C@@H]2[C@H]1C(=O)N[C@@H](C[C@@H]1CCNC1=O)C(=O)C(N)=O)C(C)(C)C
ΔTm Mpro C145A: 0 °C
